Like-named read-outs stand apart in the source and are kept apart here.
Tests used:
[1] = biological target: HIV-1JR-FL envelope glycoprotein gp120/gp41 on cells (HIV-1JR-FL)
[2] = biological target: HIV-1JR-FL envelope glycoprotein gp120/gp41 on cells (HIV-1JR-FL); remark: listed apart in the source

^125I-CD4-gamma2 (Fc fusion)
EC50 [1]: 36.4 nM
EC50 [2]: 10 to 40 nM
